Data source: PubChem BioAssay AID504761 (Drosophila RNAi Screening Center, 2011)
The screen tested about 22,000 reagents; this is a random part of those that have a named target and a result. In the full data, 116 (0.52%) got an active call. 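Calls depend on retest data that are not deposited; infection was ranked per plate without normalising between plates; the unit of the infection score is not given.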 The numbers tell different reagents against one gene apart. Further read-outs or replicates are left out here. The record does not give: the amount of reagent, the time to read-out.

- Test: 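Insect host genes that dengue virus relies on to spread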 (primary screen)
- Cell system: D.Mel-2 cells from Drosophila
- Reagent: long dsRNA against Drosophila genes
- Challenge: infection with dengue virus type 2; dose and infection time not stated
- Read-out: 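Cells stained for dengue envelope protein and imaged; percent of infected cells per well on duplicate plates, ranked by infection, with stained nuclei counted for cell number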
- Reading the numbers: infection score: higher = more virus-infected cells
- Call rule: 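Very low infection ranking in both replicate wells (chance probability at most 0.065), then a retest showing infection dropped 1.5-fold or more at p below 0.05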
- Meaning of the calls: active = confirmed: knock-down lowers infection; inactive = not picked or not confirmed

gene | reagent no. | infection score, replicate 1 | infection score, replicate 2 | Call
CG6565 | 1 | 13.7 | 6.55 | inactive
CG14760 | 1 | 2.38 | 10.8 | inactive
CG14760 | 2 | 8.49 | 8.65 | inactive
CG7548 | 1 | 1.97 | 2.24 | inactive
CG7548 | 2 | 13.1 | 0.94 | inactive
CG31211 | 1 | 4.24 | 7.07 | inactive
CG31211 | 2 | 4.75 | 3.75 | inactive
CG31211 | 3 | 3.75 | 2.5 | inactive
CG33958 | 1 | 9.61 | 18.3 | inactive
CG33958 | 2 | 6.25 | 7.41 | inactive
CG33958 | 3 | 9.13 | 22.4 | inactive
shakB | 1 | 4.95 | 4.27 | inactive
shakB | 2 | 0.54 | 2.17 | inactive
shakB | 3 | 11.5 | 7.2 | inactive
CG31948 | 1 | 3.77 | 3.34 | inactive
Tapdelta | 1 | 11.2 | 16.6 | inactive
Rgk2 | 1 | 3.43 | 0.91 | inactive
Rgk2 | 2 | 2.81 | 3.12 | inactive
Rgk2 | 3 | 7.6 | 2.09 | inactive
Rgk2 | 4 | 14 | 21.1 | inactive
stac | 1 | 0.26 | 0.27 | inactive
stac | 2 | 3.57 | 2.95 | inactive
stac | 3 | 3.15 | 1.89 | inactive
Toll-4 | 1 | 3.55 | 1.17 | inactive
CG6800 | 1 | 4.56 | 1.04 | inactive
Nipped-B | 1 | 4.94 | 9.35 | inactive
Nipped-B | 2 | 4.67 | 9.99 | inactive
CG10013 | 1 | 4.48 | 6.24 | inactive
CG2818 | 1 | 2.81 | 2.64 | inactive
Cht9 | 1 | 4.91 | 22.5 | inactive
Cht9 | 2 | 5.43 | 2.06 | inactive
Dsk | 1 | 2.69 | 21 | inactive
Cad96Ca | 1 | 4.16 | 2.59 | inactive
Cad96Ca | 2 | 11.7 | 0.73 | inactive
CG43325 | 1 | 6.52 | 6.52 | inactive
Nil | 1 | 2.18 | 9.76 | inactive
Nil | 2 | 1.2 | 7.54 | inactive
CG11722 | 1 | 4.89 | 10.2 | inactive
CtsK1 | 1 | 1.7 | 1.25 | inactive
Naglu | 1 | 1.34 | 3.47 | inactive
Rala | 1 | 1.25 | 7.26 | inactive
Rala | 2 | 15.3 | 2.74 | inactive
Nop17l | 1 | 4.3 | 29.4 | inactive
Nop17l | 2 | – | 19.1 | inactive
CG3823 | 1 | 2.24 | 1.74 | inactive
CG3823 | 2 | 10.7 | 9.49 | inactive
CR42532 | 1 | 5.95 | 12.5 | inactive
Cyp6a2 | 1 | 17.7 | 18.9 | inactive
Cyp6a2 | 2 | 2.98 | 1.35 | inactive
Ing5 | 1 | 22.6 | 12.7 | inactive
Ing5 | 2 | 3.25 | 9.18 | inactive
CG4497 | 1 | 2.82 | 7.36 | inactive
ZnT35C | 1 | 1.61 | 3.55 | inactive
CG42741 | 1 | 7.52 | 5.31 | inactive
CG42741 | 2 | 3.28 | 3.91 | inactive
CG42741 | 3 | 9.77 | 6.52 | inactive
CG15236 | 1 | 1.61 | 2.93 | inactive
CG15236 | 2 | 4.56 | 8.05 | inactive
